SMILES strings stand for the structures. The list shows a part of the results, in another mix than the full data. Some structures show a salt or complex split into parts, the way the source records it. Active and inactive are the calls of the source. No stated cut-off is given here; in the data, active means inhibition above about 50%; inactive means the rest.

By UniProt entry, the sequences of proteins in these tests, tags left out.
UniProt Q1HVG2, whole entry: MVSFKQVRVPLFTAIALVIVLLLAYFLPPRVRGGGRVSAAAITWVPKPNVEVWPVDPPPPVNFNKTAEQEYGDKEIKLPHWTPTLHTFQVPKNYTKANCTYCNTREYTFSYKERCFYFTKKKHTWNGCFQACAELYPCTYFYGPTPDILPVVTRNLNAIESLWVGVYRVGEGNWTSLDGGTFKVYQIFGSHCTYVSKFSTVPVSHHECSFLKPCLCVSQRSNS

The test concerns the target Glycoprotein 42 (Epstein-Barr virus (strain AG876)) (UniProt Q1HVG2). Put plainly: Epstein-Barr virus gp42 inhibitors, primary screen, biochemical, uHTS, fluorescence polarization (AID 1085). Conditions: Fluorescence polarization binding assay, mP read-out; active compounds read high; tested at 21.74 µM.
As to `COc1ccc(OP(C)(=O)Nc2ccc(Br)cc2)cc1` (stereo not drawn), the inhibition (commonly the change of the read-out against control, counted positive when it falls) was inactive: -4.82%.

Regarding `CCN(CC)CC(O)COC(=O)C(O)(c1ccccc1)C1CCCCC1` (stereo not drawn), the inhibition is inactive: -4.72%. For the molecule `CCc1ccc(OP(C)(=O)Nc2cccnc2)cc1` (stereo not drawn), the inhibition is inactive: -10.7%.

In the case of `CP(=O)(Oc1ccccc1)N1CCOC1=O` (stereo not drawn), the inhibition is inactive: 2.51%. Consider `O=C(OCCCN1CCCC1)C(O)(c1ccccc1)C1CCCCC1` (stereo not drawn), for which the inhibition was inactive: -12.4%. For `CP(=O)(Nc1ccc(Cl)cc1)Oc1ccc(F)cc1` (stereo not drawn), the inhibition was inactive: -8.02%. Regarding `CC(C)(C)c1ccc(OP(C)(=O)O)cc1`, the inhibition was inactive: -12.7%. Take `COc1ccccc1OP(C)(=O)Nc1ccccc1Br` (stereo not drawn): the inhibition is inactive: -17.9%. Consider `CN(C)C(=O)c1c([N+](=O)[O-])cc([N+](=O)[O-])cc1[N+](=O)[O-]`, for which the inhibition was inactive: 0.77%. Under `CP(=O)(OC12CC3CC(CC(C3)C1)C2)OC12CC3CC(CC(C3)C1)C2` stands inactive: -40.2%; under `CCOC(=O)c1ccc(NP(C)(=O)Oc2ccc(Cl)cc2)cc1` (stereo not drawn), inactive: -6.69%. Regarding `Cc1cc(C)cc(OP(C)(=O)Nc2cccc(C(F)(F)F)c2)c1` (stereo not drawn), the inhibition is inactive: -6.57%. As for `COc1ccc(OP(C)(=O)Nc2ccccc2Br)cc1` (stereo not drawn), the figure is inactive: -7.66%. As for `COc1ccccc1OP(C)(=O)Nc1ccc(C)c(C)c1` (stereo not drawn), the inhibition was inactive: -15.3%. Regarding `Cc1nc2ccc3ccccc3c2o1.O=[N+]([O-])c1cc([N+](=O)[O-])c(O)c([N+](=O)[O-])c1`, the inhibition was inactive: 12.3%. As for `CP(=O)(OCCOc1ccccc1)OCCOc1ccccc1`, the figure is inactive: -0.77%; as for `CP(=O)(Nc1ccc(Cl)cc1Cl)Oc1ccccc1` (stereo not drawn), inactive: -1.28%; as for `COc1ccccc1OP(C)(=O)Nc1ccc(Br)cc1` (stereo not drawn), inactive: -8.63%. Under `CN(C)CCOC(=O)C(O)(c1ccccc1)C1CCCC1` (stereo not drawn) stands inactive: -15.3%; under `COc1ccc(OP(C)(=O)Nc2ccccn2)cc1` (stereo not drawn), inactive: -17.5%; under `O=[N+]([O-])c1cc([N+](=O)[O-])c(Nc2ccccn2)c([N+](=O)[O-])c1`, inactive: 0.57%. Take `Cc1c(NP(C)(=O)Oc2ccc(C(C)C)cc2)c(=O)n(-c2ccccc2)n1C` (stereo not drawn): the inhibition is inactive: -19.3%. As for `CCc1ccc(OP(C)(=O)O)cc1`, the inhibition was inactive: 32.7%. For `COc1ccccc1OP(C)(=O)Nc1ccc(C)cc1C` (stereo not drawn), the inhibition is inactive: -8.27%. Under `CP(=O)(Nc1ccccn1)Oc1ccccc1` (stereo not drawn) stands inactive: 3.68%. In the case of `CC(C)c1ccc(OP(C)(=O)Nc2ccc(SC(F)(F)F)cc2)cc1` (stereo not drawn), the inhibition is inactive: -1.08%. Under `CP(=O)(Nc1ccccc1F)Oc1ccccc1` (stereo not drawn) stands inactive: 0.58%; under `O=C(OCCN1CCN(CCOCc2ccccc2)CC1)C(O)(c1ccccc1)c1ccccc1`, inactive: -8.73%. Turning to `O=C(OC1CN2CCC1CC2)c1ccc([N+](=O)[O-])cc1` (stereo not drawn), the inhibition was inactive: -9.73%. Under `COc1ccc2c(c1O)-c1c(O)c(OC)cc3c1[C@H](C2)[N+](C)(C)CC3.O=[N+]([O-])c1cc([N+](=O)[O-])c([O-])c([N+](=O)[O-])c1[O-]` stands inactive: 0.04%. As for `COc1ccc(OP(C)(=O)Nc2ccc(SC(F)(F)F)cc2)cc1` (stereo not drawn), the figure is inactive: -9.09%; as for `CCOC(=O)c1ccc(NP(C)(=O)Oc2ccc(F)cc2)cc1` (stereo not drawn), inactive: 19.9%.

For the molecule `CCN(CC)CCCOC(=O)C(O)(c1ccccc1)C1CCCCC1` (stereo not drawn), the inhibition is inactive: -0.31%. Under `CCCCCOc1ccc(NP(C)(=O)Oc2ccc(Cl)cc2Cl)cc1` (stereo not drawn) stands inactive: -11.7%. Under `CP(=O)(Nc1ccccc1)Oc1ccc(F)cc1` (stereo not drawn) stands inactive: -8.04%; under `COc1ccc(OP(C)(=O)Nc2cccc(Br)c2)cc1` (stereo not drawn), inactive: -4.56%.

For `COc1ccc(NP(C)(=O)Oc2ccccc2OC)cc1` (stereo not drawn), the inhibition is inactive: 5.09%. As for `CN(C)CCOC(=O)C(O)(c1ccccc1)C1CCCCC1` (stereo not drawn), the figure is inactive: -17.9%; as for `O=[N+]([O-])c1cc([N+](=O)[O-])c(NCC2CCS(=O)(=O)C2)c([N+](=O)[O-])c1` (stereo not drawn), inactive: 1.6%. As to `Cc1cc(-c2cccc3ccccc23)c(C)cn1.O=[N+]([O-])c1cc([N+](=O)[O-])c(O)c([N+](=O)[O-])c1`, the inhibition is inactive: -7.11%. For the molecule `O=[N+]([O-])c1ccc(OP2(=O)COCCO2)cc1` (stereo not drawn), the inhibition was inactive: -15.3%. Under `CP(=O)(Nc1ccc(SC(F)(F)F)cc1)Oc1ccc(F)cc1` (stereo not drawn) stands inactive: -12.8%; under `CCOP(C)(=S)SCC(=O)NC(C)(CC)C(=O)O` (stereo not drawn), inactive: 8.83%.

For `CP(=O)(Nc1ccc2c(c1)OCCO2)Oc1ccccc1` (stereo not drawn), the inhibition was inactive: -27.6%. As for `Cc1ccccc1NP(C)(=O)Nc1ccccc1C`, the figure is inactive: -17.8%; as for `O=[N+]([O-])c1cc([N+](=O)[O-])c(-n2nnc3ccccc32)c([N+](=O)[O-])c1`, inactive: -2.14%.

For `Cc1nc2ccc3ccccc3c2s1.O=[N+]([O-])c1cc([N+](=O)[O-])c(O)c([N+](=O)[O-])c1`, the inhibition is inactive: -28.6%. Consider `CCOC(=O)C(CC)C1=NC(C)(C)Cc2ccccc21.O=[N+]([O-])c1cc([N+](=O)[O-])c(O)c([N+](=O)[O-])c1` (stereo not drawn), for which the inhibition was inactive: -15.5%. On to `O=[N+]([O-])c1cc([N+](=O)[O-])c(Nc2nnnn2CCO)c([N+](=O)[O-])c1`, for which the inhibition is inactive: -6.49%. On to `CN1CCCCC1COC(=O)C1(O)c2ccccc2CCc2ccccc21` (stereo not drawn), for which the inhibition was inactive: -13.5%. As for `COc1ccccc1OP(C)(=O)Nc1c(C)cccc1C` (stereo not drawn), the figure is inactive: -12.2%; as for `CP(=O)(Nc1ccc(SC(F)(F)F)cc1)Oc1ccccc1` (stereo not drawn), inactive: -0.39%; as for `CCCOc1ccc(NP(C)(=O)Oc2ccc(Cl)cc2)cc1` (stereo not drawn), inactive: -6.73%. For `O=C(O)c1cccc(Nc2c([N+](=O)[O-])cc([N+](=O)[O-])cc2[N+](=O)[O-])c1`, the inhibition was inactive: -25.1%.

As for `CC1=NCCc2c1[nH]c1ccccc21.O=[N+]([O-])c1cc([N+](=O)[O-])c(O)c([N+](=O)[O-])c1`, the inhibition is inactive: -7.19%. For the molecule `COc1ccccc1OP(C)(=O)Nc1cccc(Br)c1` (stereo not drawn), the inhibition was inactive: -10.9%.

Turning to `Cc1cc(C)cc(OP(C)(=O)Nc2ccc(C)cc2C)c1` (stereo not drawn), the inhibition is inactive: -6.38%. As for `CCOC(=O)c1ccc(NP(C)(=O)Oc2cc(C)cc(C)c2)cc1` (stereo not drawn), the figure is inactive: 0.46%; as for `CP(=O)(Nc1cccc(Br)c1)Oc1ccccc1` (stereo not drawn), inactive: -2.98%.

Take `Cc1cc(C)cc(OP(C)(=O)Nc2ccccn2)c1` (stereo not drawn): the inhibition was inactive: -7.84%. Under `Cc1ccc(C)c(NP(C)(=O)Oc2ccccc2)c1` (stereo not drawn) stands inactive: -21%; under `CCN(CC)CCCOC(=O)C(O)(c1ccccc1)c1ccccc1`, inactive: -6.52%; under `Cc1cccc(C)c1OP(C)(N)=O` (stereo not drawn), inactive: -13.5%. Under `CC(C)(C)c1ccc(OP(C)(=O)Nc2ccc(SC(F)(F)F)cc2)cc1` (stereo not drawn) stands inactive: 4.31%; under `O=[N+]([O-])c1ccc2c(c1)C=Nc1ccccc1O2`, inactive: -10.3%; under `CCOC(=O)c1ccc(NP(C)(=O)Oc2ccccc2)cc1` (stereo not drawn), inactive: -11.1%.

Take `Cc1ccc(NP(C)(=O)Oc2ccccc2)c(C)c1` (stereo not drawn): the inhibition was inactive: 3.76%.

As for `COc1ccccc1OP(C)(=O)Nc1ccc(C)cc1` (stereo not drawn), the inhibition is inactive: -33.4%. Under `COc1ccc(OP(C)(=O)Nc2cccc(F)c2)cc1` (stereo not drawn) stands inactive: -13.6%; under `COc1ccccc1OP(C)(=O)Nc1cc(Cl)ccc1C` (stereo not drawn), inactive: 1.08%. Under `Cc1cc(C)cc(OP(C)(N)=O)c1` (stereo not drawn) stands inactive: -6.86%.

For the molecule `CP(=S)(Nn1cnnc1)Oc1ccccc1` (stereo not drawn), the inhibition is inactive: -4.81%. As for `COc1ccccc1OP(C)(=O)Nc1ccccc1` (stereo not drawn), the figure is inactive: -5.19%; as for `CP(=O)(Nc1ccccc1Br)Oc1ccccc1` (stereo not drawn), inactive: 0.77%. Under `CP(=O)(Oc1ccccc1)OC(c1ccccc1)C(F)(F)F` (stereo not drawn) stands inactive: -4.17%; under `CP(=O)(Nc1ccc(SC(F)(F)F)cc1)Oc1ccc(Cl)cc1` (stereo not drawn), inactive: -4.13%; under `Cc1cccc(C)c1OP(C)(=O)Nc1ccc(SC(F)(F)F)cc1` (stereo not drawn), inactive: -10.2%.

Turning to `Cc1cc(C)cc(OP(C)(=O)Nc2ccc(SC(F)(F)F)cc2)c1` (stereo not drawn), the inhibition was inactive: -1.25%. As for `CCc1ccc(OP(C)(=O)N2CCN(c3ccc([N+](=O)[O-])cc3)CC2)cc1` (stereo not drawn), the figure is inactive: -5.06%; as for `CP(=O)(NC(=O)Nc1ccccc1)Oc1ccccc1` (stereo not drawn), inactive: -23.6%; as for `CCOP(C)(=S)SCC(=O)NC(C)C(=O)O` (stereo not drawn), inactive: -26.9%.

Take `CCOC(=O)c1ccc(NP(C)(=O)Oc2ccc(OC)cc2)cc1` (stereo not drawn): the inhibition is inactive: -7.33%. Under `CP(=O)(Nc1ccccn1)Oc1ccc(Cl)cc1` (stereo not drawn) stands inactive: -12.7%.
